Tested on: HBV
Assay: Cell-based anti-HBV activity of HF9C6 analogs (Table 2; HBV DNA in HepAD38 cells)
Design: species or system hepatitis B virus (HBV)
Settings: CC50/EC50
Protocol: HepAD38 cells (5×10^4) were plated in 96-well plates in tet media. The next day, cells were washed 2× with PBS, and the media was replaced with complete media (DMEM, 10% FBS) containing compounds. Fresh complete media with compounds was added again after 2 days. After 2 additional days, cells were washed with PBS, trypsinized, and pelleted by centrifugation. The cell pellet was resuspended in 200 μl PBS, and DNA was extracted and analyzed as above. For dose responses, values were plotted in GraphPad Prism 5 and analyzed with the log (inhibitor) vs. normalized response—variable slope equation.
HepAD38 cells were seeded in 96-well plates (3×10^4 cells/well) in tet media. […] After 2 days, the media was removed, and fresh media containing compounds was added. After 2 additional days, cells were washed with PBS and lysed with 10 mM Tris (pH 7.5), 1mM EDTA, 100mM NaCl, 1% NP-40 at 37° C. for 30 min. 60 μl of lysate was added to 60 μl of 1 M NaOH, 1.5 M NaCl and incubated at RT for 5 min to denature DNA. 120 μl of 1 M Tris (pH 7.4), 2 M NaCl was added. […] Membranes were incubated with CDP-STAR® chemiluminescent substrate (Roche), imaged by chemiluminescence, and quantified by densitometry. Values were plotted in GraphPad Prism 5 and analyzed with the log (inhibitor) vs. normalized response—variable slope equation.

## Cc1c(C(=O)Nc2ccccc2)sc(N)c1C(N)=O [HF9C6]
  SI: >29

— patent US10759774B2, “Inhibitors of hepatitis B virus targeting capsid assembly” (THE CURATORS OF THE UNIVERSITY OF MISSOURI, priority 2017, dated 2020)
